PubChem BioAssay AID1259414 | Drosophila RNAi Screening Center – 2018
Aim: 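Genome-wide screen for host control of endosymbiont load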 (primary screen). System: Drosophila JW18 cells infected with Wolbachia. Knock-down reagent: long dsRNA against Drosophila genes, 0.25 µg dsRNA per well of a 384-well plate. Time to read-out: 5 days. Challenge: cells persistently infected with Wolbachia before knock-down; no added drug. Measured: 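Automated imaging of bacterial rRNA staining divided by host cell count, reported as plate-normalised robust z-score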. Scale: Wolbachia per cell robust z: higher = more Wolbachia per host cell than the plate typical. Active means: 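Active if absolute robust z reaches 1.5 in two or more of three replicates, leaving out multi- or no-target dsRNAs, genes unexpressed in JW18 and A1 wells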.
In all, the deposit lists about 24,000 reagents; this is an unselected part of those that have a named target and a result. Of all reagents, about 1,210 (5%) got an active call. 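Inactive calls also include excluded dsRNAs with several or no targets, genes unexpressed in JW18, and well A1, regardless of score.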 Entries without a mark were called inactive. The numbers tell different reagents against one gene apart. A plus sign joins genes that one reagent is predicted to hit.

no.	target	reagent	Wolbachia per cell robust z, rep 1	Wolbachia per cell robust z, rep 2	Wolbachia per cell robust z, rep 3
1	bab1 (bric a brac 1)	1	-5.04	-0.347	-0.76
2	bab1 (bric a brac 1)	2	-3.41	-1.26	-0.808
3	bab1 (bric a brac 1)	3	2.11	0.129	0.423
4	CG7888	1	0.0446	1.05	-2.96
5	CG17111	1	0.385	-1.27	-0.421
6	CG17111	2	0.412	-1.44	-1.05
7	CG14839	1	-0.457	0.256	-2.01
8	CG14839	2	-1.07	-1.15	-0.371
9	CG8323	1	0.657	1.03	-0.0711
10	klar (klarsicht)	1	1	-5.8	0.317
11	klar (klarsicht)	2	-0.545	-1.5	0.114
12	klar (klarsicht)	3	-0.279	-0.577	0.618
13	zetaTry (zetaTrypsin)	1	-1.68	1.01	0.667
14	Peritrophin-A (Peritrophin A)	1	1.28	0.153	1.51
15	CG33700	1	0.103	0.689	1.04
16	wisp (wispy)	1	0.505	-0.0713	0.464
17	wisp (wispy)	2	0.436	-0.246	-1.14
18	CG8195	1	0.379	0.984	-0.315
19	asRNA:CR43470 + CG14830	1	0.804	-3.77	0.506
20	mth (methuselah)	1	0.283	0.0178	0.178
21	mth (methuselah)	2	-3.06	0.833	0.413
22	mbf1 (multiprotein bridging factor 1)	1	0.352	0.487	1.5
23	CG12522	1	0.0336	0.796	0.642
24	CG12522	2	0.316	-0.158	-0.26
25	grh (grainy head)	1	0.443	2.05	-0.0731
26	grh (grainy head)	2	-0.21	-9.78	-0.489
27	grh (grainy head)	3	-0.422	0.562	-0.507
28	grh (grainy head)	4	0.342	1.01	-2.04
29	grh (grainy head)	5	0.0517	0.683	0.812
30	grh (grainy head)	6	-3.97	0.136	0.0943
31	Lis-1 (Lissencephaly-1)	1	0.371	0.11	1.04
32	Lis-1 (Lissencephaly-1)	2	1.09	-0.117	-0.646
33	CG4021	1	-0.557	-0.429	-0.563
34	CG4021	2	-0.196	0.467	-0.482
35	BobA	1	-1.42	-1.32	0.765
36	BobA	2	0.301	-0.397	0.358
37	ND-MNLL (NADH dehydrogenase (ubiquinone) MNLL subunit)	1	-0.861	0.641	-0.727
38	flz (filzig)	1	-1.33	-1.31	-0.124
39	Cpsf5 (Cleavage and polyadenylation specific factor 5)	1	0.904	0.634	-0.224
40	Cpsf5 (Cleavage and polyadenylation specific factor 5)	2	0.349	-3.34	1.03
41	mRpL55 (mitochondrial ribosomal protein L55)	1	1.36	0.697	1.13
42	CG9107	1	0.53	-0.164	1.22
43	arm (armadillo)	1	1.35	0.39	-8.33
44	arm (armadillo)	2	0.548	1.41	1.52
45	l(2)k09913 (lethal (2) k09913)	1	-1.54	-0.765	-0.267
46	CG3168	1	0.774	1.09	0.773
47	CG3168	2	-0.971	-1.01	-0.609
48	CG5103	1	-1.3	0.417	-0.504
49	CG7011 + Prp31	1	-0.181	-5.17	0.0538
50	Tsp42A (Tetraspanin 42A)	1	-2.37	-0.315	0.078
51	KdelR (KDEL receptor)	1	1.61 (active)	2.08	2.03
52	ind (intermediate neuroblasts defective)	1	0.02	0.172	0.818
53	PRY (polycystine-related-Y)	1	-4.54	-0.748	1.28
54	PRY (polycystine-related-Y)	2	-0.183	-0.329	-0.202
55	PRY (polycystine-related-Y)	3	-0.0217	-0.561	-1.99
56	CG13230	1	0.344	-4.05	1.17
57	CG13230	2	0.52	-0.382	-0.138
58	CG2871	1	-0.456	0.587	1.04
59	CG2871	2	-0.394	-1.26	-1.14
60	wg (wingless)	1	-1.04	-0.142	0.172
61	wg (wingless)	2	0.00947	0.349	-7.72
62	CG30355	1	-0.542	-0.147	-0.142
63	Cp15 (Chorion protein 15)	1	0.319	-0.82	-0.224
64	Cp15 (Chorion protein 15)	2	-0.187	0.958	0.644
65	Josd (Josephin domain containing)	1	-2.5 (active)	-0.962	-1.71
66	CG13775	1	-0.726	-0.0994	-0.429
67	CG13775	2	-1.2	-0.269	0.242
68	CG15370	1	0.815	0.593	0.865
69	CG15370	2	0.422	1.49	0.403
70	Or45b (Odorant receptor 45b)	1	-0.473	0.521	-0.381
71	PH4alphaNE3 (prolyl-4-hydroxylase-alpha NE3)	1	-1.35	-0.773	-0.91
72	PH4alphaNE3 (prolyl-4-hydroxylase-alpha NE3)	2	-0.9	0.0665	-0.0405
73	ND-42 (NADH dehydrogenase (ubiquinone) 42 kDa subunit)	1	0.506	0.931	0.53
74	ND-42 (NADH dehydrogenase (ubiquinone) 42 kDa subunit)	2	0.455	-0.129	-0.302
75	ND-42 (NADH dehydrogenase (ubiquinone) 42 kDa subunit)	3	0.437	-1.63	-1.08
76	fkh (fork head)	1	-0.586	0.264	-0.126
77	fkh (fork head)	2	0.229	0.353	0.21
78	snoRNA:Me28S-G2743 (retired record) + CG31910	1	-0.651	-0.782	-0.181
79	mRpL19 (mitochondrial ribosomal protein L19)	1	0.23	0.29	0.569
80	mRpL19 (mitochondrial ribosomal protein L19)	2	0.667	0.932	0.147
81	mRpL19 (mitochondrial ribosomal protein L19)	3	0.642	0.877	2.42
82	Ass + CG31286	1	-1	-1.4	-1.03
83	CG6614	1	0.292	-0.000687	-0.97
84	CG30010	1	-0.0448	-0.243	0.0167
85	CG7798	1	0.573	0.0112	-0.113
86	CG9921	1	0.696	-1.43	-0.171
87	Alg13 (Alg13 UDP-N-acetylglucosaminyltransferase subunit)	1	-0.901	-0.288	0.728
88	Alg13 (Alg13 UDP-N-acetylglucosaminyltransferase subunit)	2	-0.973	-0.63	-0.278

Laid out differently: results already given.
{"target": "Cpsf5 (Cleavage and polyadenylation specific factor 5)", "reagent": 1, "Wolbachia per cell robust z, rep 1": 0.904, "Wolbachia per cell robust z, rep 2": 0.634, "Wolbachia per cell robust z, rep 3": -0.224}
{"target": "Cpsf5 (Cleavage and polyadenylation specific factor 5)", "reagent": 2, "Wolbachia per cell robust z, rep 1": 0.349, "Wolbachia per cell robust z, rep 2": -3.34, "Wolbachia per cell robust z, rep 3": 1.03}
{"target": "mRpL55 (mitochondrial ribosomal protein L55)", "reagent": 1, "Wolbachia per cell robust z, rep 1": 1.36, "Wolbachia per cell robust z, rep 2": 0.697, "Wolbachia per cell robust z, rep 3": 1.13}
{"target": "CG9107", "reagent": 1, "Wolbachia per cell robust z, rep 1": 0.53, "Wolbachia per cell robust z, rep 2": -0.164, "Wolbachia per cell robust z, rep 3": 1.22}
{"target": "arm (armadillo)", "reagent": 1, "Wolbachia per cell robust z, rep 1": 1.35, "Wolbachia per cell robust z, rep 2": 0.39, "Wolbachia per cell robust z, rep 3": -8.33}
{"target": "arm (armadillo)", "reagent": 2, "Wolbachia per cell robust z, rep 1": 0.548, "Wolbachia per cell robust z, rep 2": 1.41, "Wolbachia per cell robust z, rep 3": 1.52}
{"target": "l(2)k09913 (lethal (2) k09913)", "reagent": 1, "Wolbachia per cell robust z, rep 1": -1.54, "Wolbachia per cell robust z, rep 2": -0.765, "Wolbachia per cell robust z, rep 3": -0.267}
{"target": "CG3168", "reagent": 1, "Wolbachia per cell robust z, rep 1": 0.774, "Wolbachia per cell robust z, rep 2": 1.09, "Wolbachia per cell robust z, rep 3": 0.773}
{"target": "CG3168", "reagent": 2, "Wolbachia per cell robust z, rep 1": -0.971, "Wolbachia per cell robust z, rep 2": -1.01, "Wolbachia per cell robust z, rep 3": -0.609}
